Source: PubChem BioAssay AID504761 (Drosophila RNAi Screening Center, 2011)
The screen tested about 22,000 reagents; below is an unselected part of those that have a named target and a result. Of all reagents, 116 (0.52%) were called active. 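Calls depend on retest data that are not deposited; infection was ranked per plate without normalising between plates; the unit of the infection score is not given.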 Raw values are not corrected between plates. A plus sign joins genes that one reagent is predicted to hit. Not given: the amount of reagent, the time to read-out.

- Aim: 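Insect host genes that dengue virus relies on to spread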 (primary screen)
- Cells: D.Mel-2 cells from Drosophila
- Reagents: long dsRNA against Drosophila genes
- Conditions: infection with dengue virus type 2; dose and infection time not stated
- Read-out: 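Cells stained for dengue envelope protein and imaged; percent of infected cells per well on duplicate plates, ranked by infection, with stained nuclei counted for cell number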
- Direction: infection score: higher = more virus-infected cells; cell count: higher = more cells in the well
- Hit rule: 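Low infection ranks in the two replicates (chance level up to 0.065) followed by a retest with a 1.5-fold or larger significant decrease, p below 0.05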
- Meaning of the calls: active = confirmed: knock-down lowers infection; inactive = not picked or not confirmed

no.	target	dsRNA	infection score, replicate 1	infection score, replicate 2	cell count, replicate 1	cell count, replicate 2	outcome
1	CG13627	DRSC14629	3.41	11.8	6546	5227	inactive
2	ova	DRSC02879	6.66	3.58	7038	6673	inactive
3	CG9702	DRSC16540		1.5	356	734	inactive
4	BckdhA	DRSC16395	4.1	13.1	6268	6569	inactive
5	Cip4	DRSC08469	5.88	2.72	6310	6431	inactive
6	Cip4	DRSC21740	16.4	12.6	4096	6027	inactive
7	Gen	DRSC09679	5.57	3.58	6514	6639	inactive
8	CG6511	DRSC10656	2.85	1.11	6657	6388	inactive
9	CG18530	DRSC15341	5.07	10.5	6216	6345	inactive
10	CG14245	DRSC14740	10.9		3196	298	inactive
11	pad	DRSC14227	4.53	12.2	6110	6163	inactive
12	pad	DRSC26048	11.9	1.9	5986	6045	inactive
13	Alg1	DRSC15297		28.5	431	3875	inactive
14	Alg1	DRSC29409			333	363	inactive
15	RpS15	DRSC07151	16.7		2620	480	inactive
16	RpS15	DRSC23462	4.78	4.87	1840	2236	inactive
17	CG42816 + CG42815	DRSC11230	2.28	8.74	6136	5709	inactive
18	mnb	DRSC20353	17.9	3.88	4767	7297	inactive
19	mnb	DRSC23347	3.13	39.8	7341	6483	inactive
20	mnb	DRSC24961	10.7	10.5	6650	5811	inactive
21	mnb	DRSC28430	11.6	7.81	4058	4776	inactive
22	CG9689	DRSC18440	2.1	4.45	6675	6969	inactive
23	CG9689	DRSC28305	2.93	12.1	1466	1558	inactive
24	bug	DRSC07137		0.75	368	535	inactive
25	CG14131	DRSC10135	1.51	3.68	6087	6248	inactive
26	CG14131	DRSC27727	14.6	6.96	5264	6513	inactive
27	CG13933	DRSC08402	11.5	18	5966	5531	inactive

9 of these entries, set out differently.
Alg1 [DRSC15297]
- infection score, replicate 2: 28.5
- cell count, replicate 1: 431
- cell count, replicate 2: 3875
- outcome: inactive

Alg1 [DRSC29409]
- cell count, replicate 1: 333
- cell count, replicate 2: 363
- outcome: inactive

RpS15 [DRSC07151]
- infection score, replicate 1: 16.7
- cell count, replicate 1: 2620
- cell count, replicate 2: 480
- outcome: inactive

RpS15 [DRSC23462]
- infection score, replicate 1: 4.78
- infection score, replicate 2: 4.87
- cell count, replicate 1: 1840
- cell count, replicate 2: 2236
- outcome: inactive

CG42816 + CG42815 [DRSC11230]
- infection score, replicate 1: 2.28
- infection score, replicate 2: 8.74
- cell count, replicate 1: 6136
- cell count, replicate 2: 5709
- outcome: inactive

mnb [DRSC20353]
- infection score, replicate 1: 17.9
- infection score, replicate 2: 3.88
- cell count, replicate 1: 4767
- cell count, replicate 2: 7297
- outcome: inactive

mnb [DRSC23347]
- infection score, replicate 1: 3.13
- infection score, replicate 2: 39.8
- cell count, replicate 1: 7341
- cell count, replicate 2: 6483
- outcome: inactive

mnb [DRSC24961]
- infection score, replicate 1: 10.7
- infection score, replicate 2: 10.5
- cell count, replicate 1: 6650
- cell count, replicate 2: 5811
- outcome: inactive

mnb [DRSC28430]
- infection score, replicate 1: 11.6
- infection score, replicate 2: 7.81
- cell count, replicate 1: 4058
- cell count, replicate 2: 4776
- outcome: inactive

The listing continues:
no.	target	dsRNA	infection score, replicate 1	infection score, replicate 2	cell count, replicate 1	cell count, replicate 2	outcome
28	RpL10	DRSC11947	4.7	0.99	2085	606	inactive
29	CG32808	DRSC17689	2.56	0.18	6166	6078	inactive
30	CG32808	DRSC28726	22.1	5.71	3983	1279	inactive
31	SPoCk	DRSC11675	6.05	3.91	6696	6680	inactive
32	SPoCk	DRSC11706	7.73	5.04	6057	6564	inactive
33	SPoCk	DRSC11844	3.25	5.56	7052	6696	inactive
34	SPoCk	DRSC11845	2.27	4.46	6959	7069	inactive
35	SPoCk	DRSC24007	3.93	6.11	6610	6481	inactive
36	Asx	DRSC23408	2.92	8.59	6002	6054	inactive
37	CG6073	DRSC15962	4.64	1.42	1573	5968	inactive
38	CG6073	DRSC22742	10.8	13.2	4897	6588	inactive
39	CG6073	DRSC29018	16.1	13.5	4784	5929	inactive
40	Hacl	DRSC06061	3.42	6.83	1082	1714	inactive
41	gsb	DRSC04692	16.8	17.3	6093	5543	inactive
42	gsb	DRSC25821	10.8	2.37	4405	5527	inactive
43	FASN1	DRSC00268	5.27	2.77	2447	2527	inactive
44	FASN1	DRSC26498	1.15	1.28	1301	1169	inactive
45	Pngl	DRSC04914	8.59	8.29	6341	6503	inactive
46	U2A	DRSC06445	5.59	23.4	5477	5271	inactive
47	U2A	DRSC28070	27.1	10.1	5480	5721	inactive
48	tplus3b + tplus3a	DRSC26400	5.03	5.04	6502	6253	inactive
49	pn	DRSC18822	3.46	3.82	5888	6545	inactive
50	pn	DRSC28649	11.6	7.79	3070	2412	inactive
51	VhaM9.7-b	DRSC11841	7.43	22.5	4657	3656	inactive
52	CG17564	DRSC02626	1.22	3.38	6071	6419	inactive
53	CG17564	DRSC26542	6.3	2.21	5902	6374	inactive
54	DJ-1alpha	DRSC07005	3.89	15.2	6936	6491	inactive
55	Fcp1	DRSC04121	9.32	32.3	6547	5368	inactive
56	Fcp1	DRSC26715	5.12	7.31	5569	6337	inactive
57	CG32669	DRSC18864	7.1	8.05	6141	6024	inactive
58	CG8004	DRSC10947	3.15	2.87	6062	6644	inactive
59	CG8004	DRSC26615	9.6	0.75	5769	5984	inactive
60	CG10445	DRSC14247	1.46	1.88	6153	6389	inactive
61	CG13121 (retired record)	DRSC02217	2.85	1.94	6279	6497	inactive
62	CG9500	DRSC03237	1.73	2.48	6299	6617	inactive
63	brp	DRSC06245	2.79	1.98	6881	6916	active
64	brp	DRSC06246	4.85	7.73	6583	6452	inactive
65	brp	DRSC06801	3.32	8.33	6894	6534	inactive
66	brp	DRSC21893	10.2	24.4	6368	5562	inactive
67	brp	DRSC29170	28.9	13.8	3935	2685	inactive
68	brp	DRSC29721	17.6	8.62	6373	6112	inactive
69	me31B	DRSC03569	5.66	0.93	3182	5496	inactive
70	Octbeta2R	DRSC15350	3.87	14.3	6224	6073	inactive
71	Octbeta2R	DRSC16165	1.21	12.2	6438	7179	inactive
72	Octbeta2R	DRSC25380	3.33	3.85	6884	6902	inactive
73	Octbeta2R	DRSC26383	1.94	1.96	5916	5927	inactive
74	nAChRalpha6	DRSC01096	4.87	1.9	5755	6257	inactive
75	nAChRalpha6	DRSC02738	15.9	6.63	6269	6247	inactive
